Experimental findings from patent publication US9771361B2, “Inhibitors of influenza viruses replication” (priority 2013, dated 2017) are described below.

The assay relates to influenza A strains. Briefly: MDCK Cell Protection Assay, panel of influenza strains. It counts as cell-based, influenza A virus. The following applies: all strains including resistant ones.

For the compound `O=C(O)[C@H]1C2CCC(CC2)C1Nc1nc(-c2c[nH]c3ncc(F)cc23)ncc1F` (stereo partly shown), the “effectiveness against strains resistant to amantadine and neuraminidase inhibitors” value is given as “equally effective”.
